# Reference: patent US6274636A (priority 1999, dated 2001)
# Tested on: 5-HT-2 receptor
# Test: activity at the 5-HT-2 receptor
# Conditions: anhydrous Form II
smiles,measurement,value
"Cc1cc2c(s1)Nc1ccccc1N=C2N1CCN(C)CC1 [anhydrous Form II, 2-methyl-4-(4-methyl-1-piperazinyl)-10H-thieno[2,3-b][1,5]benzodiazepine]",activity at the 5-HT-2 receptor,active
